# Potato spindle tuber viroid, loop 6: variant abundance in plants

Region: loop 6 of PSTVd (intermediate strain), upper and lower strand joined, each 5' to 3', the first 5 letters being the upper strand, closing pairs included. Wild type: UGACCGCGAG. Varied positions (N): UNNNCGNNNG.

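A pool of all variants was put on leaves of three Nicotiana benthamiana plants. Samples came from the inoculated region at 5 days, the leaf margin at 10 and upper systemic leaves at 12.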

Values are reads per thousand in the sample; higher means more abundant, 0 means not found.
Each value is the mean of three plants.
"Pool" is the share in the plasmid pool used as inoculum, on the same scale.
The inoculated region was read from the minus strand, the other sites from the plus strand.
IR is the inoculated region, LM the leaf margin, Sys the systemic leaves.
The authors trace changes outside the varied positions to PCR and sequencing errors or to mutation in the plant; presence does not show that a variant is infectious alone.
With 36,220-57,551 reads a sample, very low values are single reads.
For reference, wild type rose from 20.7 per thousand in the pool to 195, 198, 203 (inoculated region), 629, 591, 734 (leaf margin) and 942, 870, 868 (systemic leaves).

sequence | pool | IR | LM | Sys
UGAACGCAUG | 0.144 | 0.823 | 0.144 | 0
UCCGCGGACG | 0.196 | 0.0359 | 0 | 0
UACCCGGGCG | 0.118 | 0.101 | 0 | 0
UGAACGGGCG | 0.157 | 0.706 | 0.0923 | 0
UUCUCGAAUG | 0.549 | 0.108 | 0 | 0
UCGGCGGGUG | 0.183 | 0.0838 | 0.0169 | 0
UAAUCGCUCG | 0.288 | 0.0531 | 0.00920 | 0
UUCGCGGACG | 0.209 | 0.0766 | 0 | 0
UGUACGGCGG | 0.340 | 0.136 | 0.0232 | 0.00599
UCUACGGCGG | 0.196 | 0.126 | 0.0184 | 0
CGACCGAGAG | 0.0261 | 3.45 | 1.05 | 0.469
GGACCGUAGG | 0.0131 | 0.0297 | 0 | 0
UUCUCGGAUG | 0.183 | 0.0656 | 0 | 0
UUAUCGAAGG | 0.196 | 0.0896 | 0.00920 | 0
UGGACGGGCG | 0.170 | 0.0717 | 0.00773 | 0
UCUGCGGCCG | 0.183 | 0.0784 | 0 | 0
UGUGCGCCUG | 0.353 | 0.0958 | 0.0169 | 0
UAAUCGAGAG | 0.170 | 0.124 | 0.00773 | 0
UUUACGUUUG | 0.275 | 0.0898 | 0 | 0
UCCGCGCGCG | 0.209 | 0.101 | 0 | 0
UAUCCGGCUG | 0.275 | 0.0951 | 0.0169 | 0
UGCUCGUGUG | 0.275 | 0.0775 | 0.00773 | 0
UUGCCGUGAG | 0.379 | 0.658 | 0.115 | 0
UUGCCGAAUG | 0.314 | 0.0593 | 0.00773 | 0
UAGACGAUCG | 0.248 | 0.125 | 0.0247 | 0
UAGACGUCUG | 0.327 | 0.102 | 0.00920 | 0
UGGUCGAAUG | 0.458 | 0.0654 | 0.00773 | 0
UCGGCGUUAG | 0.458 | 0.114 | 0 | 0.00684
UCCUCGCGUG | 0.196 | 0.0891 | 0.0161 | 0
UGACCGGUAG | 0.275 | 0.244 | 0.304 | 0.263
UCAGCGAGAG | 0.157 | 0.101 | 0 | 0
UAUCCGCCAG | 0.170 | 0.0536 | 0 | 0
UGUACGUUUG | 0.314 | 0.102 | 0.0184 | 0
UUAACGUCGG | 0.314 | 0.0951 | 0.00773 | 0.00684
UGUUCGCGCG | 0.183 | 0.124 | 0.00773 | 0
UCCUCGUAAG | 0.105 | 0.0663 | 0 | 0
UUGACGUAAG | 0.157 | 0.0950 | 0.00773 | 0
UUUCCGACCG | 0.301 | 0.112 | 0.00920 | 0
UUCGCGUAGG | 0.248 | 0.125 | 0.00920 | 0
UACCCGAUCG | 0.248 | 0.112 | 0 | 0
UUCACGCCAG | 0.275 | 0.114 | 0 | 0
UGCGCGUGCG | 0.0915 | 0.118 | 0.00773 | 0
UCUGCGACAG | 0.222 | 0.0824 | 0.0169 | 0
UCGGCGUGAG | 0.327 | 0.108 | 0.00773 | 0
UCUCCGUCGG | 0.157 | 0.0949 | 0.0155 | 0
UCUGCGGAGG | 0.105 | 0.114 | 0 | 0
UUCCCGUGCG | 0.222 | 0.100 | 0.0184 | 0
UGUGCGGGUU | 0.0131 | 0 | 0 | 0
UGGUCGUGCG | 0.196 | 0.101 | 0.0169 | 0
UUCCCGAAAG | 0.209 | 0.0829 | 0.00920 | 0
UCCGCGUAUG | 0.209 | 0.113 | 0.0920 | 0
UGUACGGCAG | 0.170 | 0.527 | 0.0752 | 0.00599
UUUCCGGAUG | 0.288 | 0.108 | 0.0339 | 0
UGCUCGCUUG | 0.288 | 0.102 | 0.0155 | 0
UAAGCGUGAG | 0.327 | 0.590 | 0.0515 | 0.0271
UCAUCGUGGG | 0.105 | 0.0896 | 0 | 0

Excerpt, the final 5 entries:

* UGUACGGCAG (pool 0.170): IR 0.527; LM 0.0752; Sys 0.00599
* UUUCCGGAUG (pool 0.288): IR 0.108; LM 0.0339; Sys 0
* UGCUCGCUUG (pool 0.288): IR 0.102; LM 0.0155; Sys 0
* UAAGCGUGAG (pool 0.327): IR 0.590; LM 0.0515; Sys 0.0271
* UCAUCGUGGG (pool 0.105): IR 0.0896; LM 0; Sys 0

Values reported by Wu et al. 2024 (doi:10.1371/journal.ppat.1012142).